# Human monoclonal antibodies against the spike receptor-binding domain (heavy:light variable regions). IC50 against pseudoviruses bearing the spike of naturally observed variants; lower = stronger; >10 µg/ml means not reached at the top dose. No active / inactive call. The stated detection limit is 0.0005 µg/ml; values near or below 0.001 µg/ml lie at the floor of the assay.
# B1: BD-916 (protein)
# chain 1: EVQLVESGGGLVQPGRSLRLSCAASGFTFDDYAMHWVRQVPGKGLEWVSGISWNGDSIGYADSVKGRLTISRDNAKNTLFLQMNSLRAEDTAFYYCVKGLLGEWEFLFDYWGQGTLVTVSS
# chain 2: QSVLTQPPSASGTPGQRVTISCSGSSSNIGNKITNWYQQLPGTAPKFLIYSNNQRPSGVPDRFSASKSGTSASLAISGLQSEDEADYYCAAWDDSLNALVFGGGTKLTVL
# B2: BD-918 (protein)
# chain 1: QVQLQESGPGLVKPSETLSLTCTVSGGSISDYYWSWIRQPAGKGLEWIGRIYASGSTSYNPSLKSRVTMSEDTSKNQFSLKLRSVAAADTAVYYCAREGITMVGGKIHNWFDPWGQGTLVTVSS
# chain 2: QSVLTQPPSASGTPGQRVTISCSGSSSNIASNYVYWYQQLPGTAPKLLIYRNNQRPSGVPDRFSGSKSDTSASLAISGLRSEDEADYYCAAWDDSLSGPVFGGGTKLTVL
# B3: BD-922 (protein)
# chain 1: QVQLQQSGPGLMKPSQTLSLTCAISGDSVSSNSPAWNWIRQSPSRGLEWLGRTYYRSRWYNDYAVSVKSRITINSDTSKNQFSLQLNSVTPEDTAVYYCARVSLWYGDLSGAFDIWGQGTMVTVSS
# chain 2: EIVLTQSPGTLSLSPGERATLSCRASQSVSNNYLGWYQQKPGQAPRLLIYGASSRATGIPDRFSGSGSGTDFTLTISRLEPEDFAVYYCQQYGSSSITFGPGTKVDIR
# B4: BD55-300 (protein)
# chain 1: QLHLQESGPGLVKASETLSLTCTVSADSISSSRYYWGWIRQSPGKGLEWIGSIFYSGSTYYNPSLKSRVTISVDTSKNQFSLRLSSVTAADTALYYCARHLAGIDYWGQGTLVTVSS
# chain 2: DIQMTQSPSFLSASVGDRVTITCRASQGISNSLAWYQQKPGKAPNLLLYAASTLESGVPSRFSGSGSGTDFTLTVSSLQPEDFATYYCQQYYDTLFTFGPGTKVDIK
# B5: BD55-302 (protein)
# chain 1: EVQLVESGGALVHPGRSLRLSCTASGFTFEDYAMHWVRQAPGKGLEWVSGVSWNSGTIGYADSVKGRFIISRDNAKNSLYLQMLSLRVEDTAFYYCAKHGGLLDTSLDQYYFDYWGQGTLVTVSS
# chain 2: not shown
# B6: BD55-311 (protein)
# chain 1: QVQLQESGPGLVKPSQTLSLTCTVSGGSINIGGFYWTWIRQHPGKGLEWIGYISYSGSTSYNPSLRSRVTVSVDMSKNQFSLRLSSVTAADTAVYYCARGQEFWFDPWGQGTLVTVSS
# chain 2: SYVVTQPPSVSVAPGKTARITCGGNNIGSKSVHWYQQKPGQAPVLVMYYDSDRPSGIPERFSGSNSGNTATLTISRVEAGDEADYYCQVWESSSDHPYVFGTGTKVTVL
# B7: BD55-389 (protein)
# chain 1: EVQLVESGGGLVQPGRSLRLSCAASGFTFDDYAMYWVRQAPGKGLEWVSGISWNSGSIHYADSVKGRFTISRDNAKNSLYLQMNSLRAEDTALYYCAKSQLGELLFGPDYWGQGTLVTVSS
# chain 2: QSVLTQPPSASGTPGQRVTISCSGSTSNIETYAVNWYQQLPGTAPKLLIYSNNQRPSGLPDRFSGSKSGTSASLAISGLQSEDEATYYCAAWDDSLNGHWVFGGGTKLTVL
# B8: BD-692 (protein)
# chain 1: EVQLVESGGGLVQPGGSLRLSCAASGFTFSSHGMNWVRQAPGKGLEWVSYISSRDSTIYYADSVKGRFTISRDNAKNSLYLQMNSLRDEDTAVYYCARDNSDYDYSFGAYYFDYWGQGTLVTVSS
# chain 2: EIVLTQSPATLSLSPGERATVSCRASQSVSNFLAWYQQKPGQAPRLLIHDASNRATGIPARFSGSGSGTDFTLTISSLEPEDFAVYYCQQRRNWPPVTFGQGTRLEIK
# B9: BD-693 (protein)
# chain 1: EVQLVESGGGLVKPGGSLRLSCAASGFTFSLAYMSWVRQAPGKGLEWVGRIKSKTEGGTTDYAAPVKGRFTISRDDSKNTLYLQMNSLKTEDTAVYYCTTSIHARELRPPNAFDIWGQGTMVTVSS
# chain 2: QSVLTQPPSVSEAPRQRVTISCSGSSSNIGNNAVNWYQQLPGKAPKLLIYYDDLLPSGVSDRFSGSKSGTSASLAISGLQSEDEADYYCAAWDDSLNGYVFGTGTKVTVL
# B10: BD55-75 (protein)
# chain 1: QVQLVESGGGVVQPGRSLRLSCAASGFTFSRHAMHWVRQAPGKGLEWVAVLSYDGTDKYYADFVKGRFTISRDSANDMLYLQMDSLGAEDTAVYYCAREDADYGDADFDSWGQGTLVTVSS
# chain 2: QSALTQPRSVSGSPGQSVTISCTGTSSDVGGYNYVSWYQQHPGKAPKLMIHNVIKRPSGVPDRFSGSKSGNTASLTISGLQAEDEADYYCCSYAGRFWVFGGGTKLAVL
# B11: BD55-822 (protein)
# chain 1: QVQLVQSGAEVKKPGSSVKVSCKASGGTFSRYAISWVRQAPGQGLEWMGRIIPILDIANFAQKFQDRVTITADKSTTTAYMELSSLRSEDTAVYYCAREEYYYDRSGSYQYGWFDPWGQGTLVTVSS
# chain 2: SYELTQPPSVSVSPGQTARITCSGDALPEKLAYWYQQKSGQAPVLVIYEDSKRPSGIPERFSGSSSGTMATLTISGAQVKDEADYYCYSTDSSGDHRGVFGTGTKVTVL
# B12: BD55-824 (protein)
# chain 1: QLQLQESGPGLVKPSETLSLTCTVSGGSISSRCSYWGWIRQPPGKGLEWIGSMYYSGATYYNPSLKSRVTISVDTSNNQFSLKMSSVTAADTALYYCAREEGHCSSWGGVYFDHWGQGILVTVSS
# chain 2: QSVLTQPPSVSGAPGQRVTISCTGSSSNIGAGYDVHWYQHPPGTAPKLLIYGNNNRPSGVPDRFSGSKSGASASLAITGLQAEDEADYYCQSYDTSLTARVFGGGTRLTVL
# B13: BD55-828 (protein)
# chain 1: EVQLVQSGAEVKKPGESLKISCKGSGYSFTNYWIGWVRQMPGKGLEWMGIIYPGDSDTRYSPSFQGQVTISADKSISTAYLQWSSLKASDTAMYYCASEMMDCSSASCYWLYPYFDYWGQGTLVTVSS
# chain 2: QSALTQPASVSGSPGQSITISCTGTSSDVGGYNYVSWYQQHPGKAPKLMIYDVSNRPSGVSNRFSGSKSGNTASLTISGLQAEDEADYYCSSYTSSSSPIFGGGTKLTVL
# Biological target: SARS-CoV-2 Omicron BA.1 spike pseudovirus
# Test: pseudovirus neutralization IC50; higher = weaker neutralization
# Experimental: (§1)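 Single-round VSV luciferase pseudovirus mixed with antibody dilutions for 1 h and put on Huh-7 cells for about a day; IC50 from the dose curve.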
row,Binder,pseudovirus neutralization IC50 [µg/mL]
1,B1,1.41
2,B2,> 10
3,B3,> 10
4,B4,> 10
5,B5,0.0612
6,B6,1.89
7,B7,> 10
8,B8,4.37
9,B9,> 10
10,B10,> 10
11,B11,1.34
12,B12,> 10
13,B13,> 10

# Biological target: SARS-CoV-2 Omicron BA.2 spike pseudovirus
# Test: as above
# Experimental: as §1
row,Binder,pseudovirus neutralization IC50 [µg/mL]
1,B1,> 10
2,B2,> 10
3,B3,> 10
4,B4,> 10
5,B5,0.0623
6,B6,1.28
7,B7,> 10
8,B8,2.39
9,B9,> 10
10,B10,> 10
11,B11,> 10
12,B12,> 10
13,B13,> 10

# Biological target: SARS-CoV-2 Omicron BA.2.75 spike pseudovirus
# Test: as above
# Experimental: as §1
row,Binder,pseudovirus neutralization IC50 [µg/mL]
1,B1,> 10
2,B2,> 10
3,B3,> 10
4,B4,> 10
5,B5,0.0425
6,B6,1.12
7,B7,> 10
8,B8,2.18
9,B9,> 10
10,B10,> 10
11,B11,> 10
12,B12,> 10
13,B13,> 10

# Biological target: SARS-CoV-2 Omicron BA.5 spike pseudovirus
# Test: as above
# Experimental: as §1
row,Binder,pseudovirus neutralization IC50 [µg/mL]
1,B1,> 10
2,B2,> 10
3,B3,> 10
4,B4,> 10
5,B5,> 10
6,B6,> 10
7,B7,> 10
8,B8,5.51
9,B9,> 10
10,B10,> 10
11,B11,> 10
12,B12,> 10
13,B13,> 10

# Biological target: SARS-CoV-2 Omicron BQ.1.1 spike pseudovirus
# Test: as above
# Experimental: as §1
row,Binder,pseudovirus neutralization IC50 [µg/mL]
1,B1,> 10
2,B2,> 10
3,B3,> 10
4,B4,> 10
5,B5,> 10
6,B6,> 10
7,B7,> 10
8,B8,6.89
9,B9,> 10
10,B10,> 10
11,B11,> 10
12,B12,> 10
13,B13,> 10

# Biological target: SARS-CoV-2 Omicron XBB spike pseudovirus
# Test: as above
# Experimental: as §1
row,Binder,pseudovirus neutralization IC50 [µg/mL]
1,B1,> 10
2,B2,> 10
3,B3,> 10
4,B4,> 10
5,B6,> 10
6,B7,> 10
7,B8,4.19
8,B9,> 10
9,B10,> 10
10,B11,> 10
11,B12,> 10
12,B13,> 10

# Biological target: SARS-CoV-2 early D614G spike pseudovirus
# Test: as above
# Experimental: as §1
row,Binder,pseudovirus neutralization IC50 [µg/mL]
1,B1,1.69
2,B2,0.005
3,B3,0.039
4,B4,0.005
5,B5,0.074
6,B6,0.469
7,B7,> 10
8,B8,0.314
9,B9,0.272
10,B10,0.016
11,B11,0.123
12,B12,> 10
13,B13,> 10

# — the supplement of paper PMC9931576
